For one test, the target named is human voltage-gated sodium channel Nav1.3 (human), Q9NY46. As to the kind of experiment: cell-based or functional assay.
For the molecule DCLGMLRKCIPDNDKCCRPNLVCSRTHKWCKYVF (modifications not checked) [[Met5;Leu6]GpTx-1(1-34)], the IWQ Use Nav1.3 (µM); IC50 of peak inward current, IonWorks Quattro amounted to 0.24 µM.

DCLGALRKCIPDNDKCCRPNLVCSRTHKWCKYVF (modifications not checked) [[D-Ala5;Leu6]GpTx-1(1-34)]: the IWQ Use Nav1.3 (µM), IC50 of peak inward current turned out to be 11.5 µM.

Turning to DCLGALRKCIPDNDKCCRPNLVCSRTHEWCKYVF (modifications not checked) [[Ala5;Leu6;Glu28]GpTx-1(1-34)], the IWQ Use Nav1.3 (µM) (IC50, IonWorks Quattro population patch clamp) came out at 6.6 µM.

DCLGAMRKCIPDNDKCCRPNLVCSREHKWCKYVF (modifications not checked) [[Ala5;Glu26]GpTx-1(1-34)]: the IWQ Use Nav1.3 is above 5 µM.

In turn, DCLGVFRKCIPDNDKCCRPNLVCSRTHKWCKYVF (modifications not checked) [[Val5;Phe6]GpTx-1(1-34)] registered an IWQ Use Nav1.3 (µM), IC50 of peak inward current of 0.099 µM.

Take DCLGAFRKCIPDNDKCCRPNLVCSETHKWCKYVF (modifications not checked) [[Ala5;Phe6;Glu25]GpTx-1(1-34)]: the IC50, IWQ Use Nav1.3 is 3.6 µM.

DCRGFMRKCIPDNDKCCRPNLVCSRTHKWCKYVF (modifications not checked) [[Arg3]GpTx-1(1-34)] registered an IWQ Use Nav1.3 of 0.05 µM.

DCLGALRKCIPENDKCCRPNLVCSRTHKWCKYVF (modifications not checked) [[Ala5;Leu6;Glu12]GpTx-1(1-34)] displayed an IWQ Use Nav1.3 (µM) (IC50, IonWorks Quattro population patch clamp) of 0.58 µM.

In turn, DCLGAMRKCIPDNDKCCRPNLVCSRTEKWCKYVF (modifications not checked) [[Ala5;Glu27]GpTx-1(1-34)] gave an IWQ Use Nav1.3 above 5 µM.

Molecule DCLGAFRKCIPDNDKCCRPNLVCSRTHKWCKYVF (modifications not checked) [[D-Ala5;Phe6]GpTx-1(1-34)] had an IWQ Use Nav1.3 of 2.7 µM.

Molecule DCLGAMRKCIPDNDKCCRPNLVCSRTHYWCKYVF (modifications not checked) [[Ala5;Tyr28]GpTx-1(1-34)] returned an IWQ Use Nav1.3 IC50 (IonWorks Quattro electrophysiology) of 1.4 µM.

In the case of DCLGGFRKCEPDNDKCCRPNLVCSRTHKWCKYVF (modifications not checked) [[Gly5;Phe6;Glu10]GpTx-1(1-34)], the IC50, IWQ Use Nav1.3 was 0.33 µM.

As to DCLGMFRKCIPDNDKCCRPNLVCSRTHKWCKYVF (modifications not checked) [[Met5;Phe6]GpTx-1(1-34)], the IWQ Use Nav1.3 amounted to 0.11 µM.

For DCAGFMRKCIPDNDKCCRPNLVCSRTHKWCKYVF (modifications not checked) [[Ala3]GpTx-1(1-34)], the IWQ Use Nav1.3 was determined as 0.1 µM.

DCLGFMRKCIPDNDKCCRPNLVCSRTHQWCKYVF (modifications not checked) [[Gln28]GpTx-1(1-34)] yielded an IWQ Use Nav1.3 IC50 (IonWorks Quattro electrophysiology) of 0.27 µM.

The next test addresses human voltage-gated sodium channel Nav1.5 (human), Q14524. As to the kind of experiment: cell-based or functional assay.
DCLGMLRKCIPDNDKCCRPNLVCSRTHKWCKYVF (modifications not checked) [[Met5;Leu6]GpTx-1(1-34)] gave an IWQ Use Nav1.5 (µM); IC50 of peak inward current, IonWorks Quattro above 5 µM and a Nav1.5 Use IC50 (PatchXpress electrophysiology) above 10 µM.

Molecule DCLGALRKCIPDNDKCCRPNLVCSRTHKWCKYVF (modifications not checked) [[D-Ala5;Leu6]GpTx-1(1-34)] yielded an IWQ Use Nav1.5 (µM), IC50 of peak inward current of 7.1 µM.

As to DCLGALRKCIPDNDKCCRPNLVCSRTHEWCKYVF (modifications not checked) [[Ala5;Leu6;Glu28]GpTx-1(1-34)], the IWQ Use Nav1.5 (µM) (IC50, IonWorks Quattro population patch clamp) was 43 µM.

The molecule DCLGAMRKCIPDNDKCCRPNLVCSREHKWCKYVF (modifications not checked) [[Ala5;Glu26]GpTx-1(1-34)] returned an IWQ Use Nav1.5 of 27.3 µM.

The molecule DCLGVFRKCIPDNDKCCRPNLVCSRTHKWCKYVF (modifications not checked) [[Val5;Phe6]GpTx-1(1-34)] had an IWQ Use Nav1.5 (µM), IC50 of peak inward current of 9.4 µM.

Molecule DCLGAFRKCIPDNDKCCRPNLVCSETHKWCKYVF (modifications not checked) [[Ala5;Phe6;Glu25]GpTx-1(1-34)] displayed an IC50, IWQ Use Nav1.5 of 41 µM.

DCRGFMRKCIPDNDKCCRPNLVCSRTHKWCKYVF (modifications not checked) [[Arg3]GpTx-1(1-34)] came in with an IWQ Use Nav1.5 of 8.45 µM.

For DCLGALRKCIPENDKCCRPNLVCSRTHKWCKYVF (modifications not checked) [[Ala5;Leu6;Glu12]GpTx-1(1-34)], the IWQ Use Nav1.5 (µM) (IC50, IonWorks Quattro population patch clamp) was above 50 µM and the Nav1.5 Use IC50 (µM), PatchXpress electrophysiology is above 10 µM.

DCLGAMRKCIPDNDKCCRPNLVCSRTEKWCKYVF (modifications not checked) [[Ala5;Glu27]GpTx-1(1-34)] gave an IWQ Use Nav1.5 of 29.7 µM.

Consider DCLGAFRKCIPDNDKCCRPNLVCSRTHKWCKYVF (modifications not checked) [[D-Ala5;Phe6]GpTx-1(1-34)], for which the IWQ Use Nav1.5 stood at 13.1 µM.

DCLGAMRKCIPDNDKCCRPNLVCSRTHYWCKYVF (modifications not checked) [[Ala5;Tyr28]GpTx-1(1-34)] yielded an IWQ Use Nav1.5 IC50 (IonWorks Quattro electrophysiology) of 42 µM.

Molecule DCLGGFRKCEPDNDKCCRPNLVCSRTHKWCKYVF (modifications not checked) [[Gly5;Phe6;Glu10]GpTx-1(1-34)] displayed an IC50, IWQ Use Nav1.5 of 34.2 µM.

As to DCLGMFRKCIPDNDKCCRPNLVCSRTHKWCKYVF (modifications not checked) [[Met5;Phe6]GpTx-1(1-34)], the IWQ Use Nav1.5 was 13.3 µM.

On to DCAGFMRKCIPDNDKCCRPNLVCSRTHKWCKYVF (modifications not checked) [[Ala3]GpTx-1(1-34)], for which the IWQ Use Nav1.5 came out at 19 µM and the Nav1.5 Use IC50 (PatchXpress electrophysiology) was above 10 µM.

As for DCLGFMRKCIPDNDKCCRPNLVCSRTHQWCKYVF (modifications not checked) [[Gln28]GpTx-1(1-34)], the IWQ Use Nav1.5 IC50 (IonWorks Quattro electrophysiology) amounted to 22.7 µM and the Nav1.5 Use IC50 (PatchXpress electrophysiology) was above 10 µM.

For another test, the target named is human voltage-gated sodium channel Nav1.7 (human), Q15858. As to the kind of experiment: cell-based or functional assay.
DCLGMLRKCIPDNDKCCRPNLVCSRTHKWCKYVF (modifications not checked) [[Met5;Leu6]GpTx-1(1-34)] yielded an IWQ Use Nav1.7 (µM); IC50 of peak inward current, IonWorks Quattro of 0.069 µM and a Nav1.7 Use IC50 (PatchXpress electrophysiology) of 0.27 µM.

In the case of DCLGALRKCIPDNDKCCRPNLVCSRTHKWCKYVF (modifications not checked) [[D-Ala5;Leu6]GpTx-1(1-34)], the IWQ Use Nav1.7 (µM), IC50 of peak inward current turned out to be 10.7 µM.

DCLGALRKCIPDNDKCCRPNLVCSRTHEWCKYVF (modifications not checked) [[Ala5;Leu6;Glu28]GpTx-1(1-34)] came in with an IWQ Use Nav1.7 (µM) (IC50, IonWorks Quattro population patch clamp) of 1.6 µM.

In the case of DCLGAMRKCIPDNDKCCRPNLVCSREHKWCKYVF (modifications not checked) [[Ala5;Glu26]GpTx-1(1-34)], the IWQ Use Nav1.7 is above 5 µM.

Consider DCLGVFRKCIPDNDKCCRPNLVCSRTHKWCKYVF (modifications not checked) [[Val5;Phe6]GpTx-1(1-34)], for which the IWQ Use Nav1.7 (µM), IC50 of peak inward current was 0.12 µM.

In turn, DCLGAFRKCIPDNDKCCRPNLVCSETHKWCKYVF (modifications not checked) [[Ala5;Phe6;Glu25]GpTx-1(1-34)] had an IC50, IWQ Use Nav1.7 of 1.5 µM.

DCRGFMRKCIPDNDKCCRPNLVCSRTHKWCKYVF (modifications not checked) [[Arg3]GpTx-1(1-34)] gave an IWQ Use Nav1.7 of 0.03 µM.

With DCLGALRKCIPENDKCCRPNLVCSRTHKWCKYVF (modifications not checked) [[Ala5;Leu6;Glu12]GpTx-1(1-34)], the IWQ Use Nav1.7 (µM) (IC50, IonWorks Quattro population patch clamp) was 0.35 µM and the Nav1.7 Use IC50 (µM), PatchXpress electrophysiology turned out to be 0.021 µM.

The molecule DCLGAMRKCIPDNDKCCRPNLVCSRTEKWCKYVF (modifications not checked) [[Ala5;Glu27]GpTx-1(1-34)] came in with an IWQ Use Nav1.7 above 5 µM.

For the molecule DCLGAFRKCIPDNDKCCRPNLVCSRTHKWCKYVF (modifications not checked) [[D-Ala5;Phe6]GpTx-1(1-34)], the IWQ Use Nav1.7 turned out to be 2.1 µM.

DCLGAMRKCIPDNDKCCRPNLVCSRTHYWCKYVF (modifications not checked) [[Ala5;Tyr28]GpTx-1(1-34)] yielded an IWQ Use Nav1.7 IC50 (IonWorks Quattro electrophysiology) of 0.79 µM.

Turning to DCLGGFRKCEPDNDKCCRPNLVCSRTHKWCKYVF (modifications not checked) [[Gly5;Phe6;Glu10]GpTx-1(1-34)], the IC50, IWQ Use Nav1.7 is 0.35 µM and the Nav1.7/Nav1.3 (ratio of IWQ Use IC50, Nav1.7 against Nav1.3) turned out to be 1.1 fold.

Consider DCLGMFRKCIPDNDKCCRPNLVCSRTHKWCKYVF (modifications not checked) [[Met5;Phe6]GpTx-1(1-34)], for which the IWQ Use Nav1.7 was 0.043 µM.

Regarding DCAGFMRKCIPDNDKCCRPNLVCSRTHKWCKYVF (modifications not checked) [[Ala3]GpTx-1(1-34)], the IWQ Use Nav1.7 was found to be 0.51 µM and the Nav1.7 Use IC50 (PatchXpress electrophysiology) amounted to 0.012 µM.

Take DCLGFMRKCIPDNDKCCRPNLVCSRTHQWCKYVF (modifications not checked) [[Gln28]GpTx-1(1-34)]: the IWQ Use Nav1.7 IC50 (IonWorks Quattro electrophysiology) was determined as 0.19 µM and the Nav1.7 Use IC50 (PatchXpress electrophysiology) was 0.004 µM.

The values are drawn from US20160304570A1, “Potent and selective inhibitors of nav1.3 and nav1.7” (published 2016).
